Measured values from several laboratories, pooled; numbers as filed in NIAID ChemDB.

All rows: tests in culture; species: Aspergillus fumigatus; measure: MIC

An empty or dashed field is not shown.

smiles | strain or isolate | read by | result
Cc1ccc2oc(=O)c3c(c2c1)OC(N)=C(C#N)C3c1cc2ccccc2nc1Sc1ccc(Cl)cc1 | MTCC 3008 | broth dilution | >1000 µg/mL
COc1ccc(/C=C/C(=O)c2ccc(C)cc2)cc1 | ATCC 26934 |  | >50 µg/mL
CN(C/C=C/C#CC(C)(C)C)Cc1cccc2ccccc12 | NFI 4001 |  | 2 µg/mL
COc1ccc2nc(Sc3ccc(C)cc3)c(C3C(C#N)=C(N)Oc4c3c(=O)oc3ccc(C)cc43)cc2c1 | MTCC 3008 | broth dilution | 1000 µg/mL
N#CC(C#N)C(CC(=O)c1ccccc1)c1ccc(Cl)cc1Cl | ATCC 26934 |  | >50 µg/mL
COc1cc(C=O)cc(OC)c1 | AF293 | agar | 1000 µM
C[C@H]1[C@H](O)[C@@H](C)/C=C/C=C/C=C/C=C/C=C/C=C/C=C/[C@H](O[C@@H]2O[C@H](C)[C@@H](O)[C@H](N)[C@@H]2O)C[C@@H]2O[C@](O)(C[C@@H](O)C[C@@H](O)CC[C@H](O)[C@@H](O)C[C@@H](O)CC(=O)O[C@H]1C)C[C@H](O)[C@H]2C(=O)O | NFI 4001 |  | 1 µg/mL
O=C/C=C/c1ccccc1 | AF293 | agar | 1000 µM
CCC(C)CC(C)CCCCCCCCC(=O)N[C@H]1C[C@@H](O)[C@H](NCCN)NC(=O)[C@@H]2[C@@H](O)CCN2C(=O)[C@H]([C@H](O)CCN)NC(=O)[C@H]([C@H](O)[C@@H](O)c2ccc(O)cc2)NC(=O)[C@@H]2C[C@@H](O)CN2C(=O)[C@H]([C@@H](C)O)NC1=O | ATCC 204305 | XTT | 128 µg/mL
COc1cccc(/C=C/C(=O)c2ccccc2)c1OC | ATCC 26934 |  | >50 µg/mL
COc1ccc2nc(Sc3ccc(Cl)cc3)c(C3C(C#N)=C(N)Oc4c3c(=O)oc3ccccc43)cc2c1 | MTCC 3008 | broth dilution | 1000 µg/mL
COc1cccc(/C=C/C(=O)c2ccccc2)c1 | ATCC 26934 |  | >50 µg/mL
COc1ccc2nc(Sc3ccccc3)c(C3C(C#N)=C(N)Oc4cc(C)oc(=O)c43)cc2c1 | MTCC 3008 | broth dilution | 200 µg/mL
Cc1ccc(/C=C/C(=O)c2ccccc2)cc1 | ATCC 26934 |  | >50 µg/mL
COc1cccc(C=O)c1OC | AF293 | agar | 2500 µM

The last 2 rows once more:

smiles,strain or isolate,read by,result
Cc1ccc(/C=C/C(=O)c2ccccc2)cc1,ATCC 26934,,>50 µg/mL
COc1cccc(C=O)c1OC,AF293,agar,2500 µM

Neighbouring rows are from separate reports.